Compound potency records, mixed from different reports. Data source: NIAID ChemDB in PubChem.

All rows: whole-cell or culture tests; species: HIV-1; cell line: PBMC; read-out: EC50

An empty or dashed field is not shown. ECn is the concentration giving n% inhibition of infection, replication or growth. Rows are shuffled and stem from different studies.

SMILES,strain or isolate,mutations,method,conditions,value
COc1cc(C[C@H](C)[C@H](C)Cc2ccc(O)c(O)c2)ccc1O,JR-CSF,,p24,,0.06 µg/mL
O=c1[nH]cnc2c1ncn2[C@H]1CC[C@@H](CO)O1,HXB2 WT,,p24,,0.8 µM
Cc1ccnc2c1NC(=O)c1cccnc1N2C1CC1,WEJO,,cytopathic effect / XTT,clinical isolate,0.06 µM
Cc1cn([C@H]2C[C@H](N=[N+]=[N-])[C@@H](CO)O2)c(=O)[nH]c1=O,VAU (RT-A98G),RT-A98G,,,0.01 µM
Cc1cn([C@H]2C[C@H](N=[N+]=[N-])[C@@H](CO)O2)c(=O)[nH]c1=O,,RT-L74V T215Y K219Q,p24,,0.004 µM
COC(=O)[C@H](C)NP(=O)(OC[C@@H]1C=C[C@H](n2cc(C)c(=O)[nH]c2=O)O1)Oc1ccc(Br)cc1,G3 R5 subtype G/- (env/gag),RT-V35T E40D K173T R211K L214F,p24,,0.0005 µM
O=C(O)P(=O)(O)O,9281 CLADE A CLADE A,,p24,,21.6 µM
CC[C@@H](c1ccc(C(F)(F)F)cc1)N1CCN(C2(C)CCN(C(=O)c3c(C)ncnc3C)CC2)C[C@@H]1C,RU570 Clinical isolates,,,,<1 µM
C=C(C)[C@]12C[C@@H](COC(=O)c3ccccc3)[C@@]34O[C@]5(O[C@@H]1[C@@H]3[C@@H]1O[C@]1(CO)[C@@H](O)[C@@]1(O)[C@H]4[C@H]([C@H](C)[C@@H]1OC(=O)c1ccccc1)[C@H](C)CCCCCC[C@H]5O)O2,BaL,,,,0.000042 µM
CC(C)CN(C[C@@H](O)[C@H](Cc1ccccc1)NC(=O)O[C@H]1[C@H]2CCCO[C@H]2O[C@@H]1C)S(=O)(=O)c1ccc(N)cc1,MM,PR-L10I K43T M46I I54V L63P A71V V82A L90M Q92K,p24,,0.34 µM
CCCc1cc(=O)oc2c3c(c4c(c12)OC(C)(C)C=C4)O[C@@H](C)[C@H](C)[C@@H]3O,CLADE F,,RT activity,,0.1 µM
Cc1cc(=O)c2ccc(N=C=S)cc2o1,NL4-3,,p24 / ELISA,,0.1925 µM
c1cc(CN2CCCNCCNCCCNCC2)ccc1CN1CCCNCCNCCCNCC1,JR-FL R5,,p24,,>10 µM
Nc1nc(=O)n([C@@H]2C[C@@H](O)[C@H](CO)O2)cc1Cl,LAV,,RT activity,,>100 µM
CCO/N=C(\c1ccc(Br)cc1)C1CCN(C2(C)CCN(C(=O)c3c(C)cc[n+]([O-])c3C)CC2)CC1,NL4-3 X4,,p24,,>1 µM
CC(C)CN(C[C@@H](O)[C@H](Cc1ccccc1)NC(=O)O[C@H]1CCOC1)S(=O)(=O)c1ccc(N)cc1,MM,PR-L10I K43T M46I I54V L63P A71V V82A L90M Q92K,p24,,0.53 µM
S=C(NCCc1cccs1)Nc1ccc(Br)cn1,NRTI resistant (RT Y181C K103N) A17 variant,RT-Y181C K103N,p24,,3.2 µM
Nc1nc(=O)n([C@@H]2CS[C@H](CO)O2)cc1F,Clinical isolate,A114S/M184V,single cycle / fluorescence,,>42 µM
CCO/N=C(\c1ccc(Br)cc1)C1CCN(C2(C)CCN(C(=O)c3c(C)cc[n+]([O-])c3C)CC2)CC1,JV1083 Clinical isolates,,,,<0.01 µM
CC(C)(C)NC(=O)[C@@H]1C[C@@H]2CCCC[C@@H]2CN1C[C@@H](O)[C@H](Cc1ccccc1)NC(=O)[C@H](CC(N)=O)NC(=O)c1ccc2ccccc2n1,BAL R5,,p24,,0.008 µM
Nc1ncnc2c1ncn2[C@@H]1C=C[C@H](CO)O1,LAV,,RT activity,,0.38 µM
CC(C)OC(=O)OCOP(=O)(CO[C@H](C)Cn1cnc2c(N)ncnc21)OCOC(=O)OC(C)C,288C,,p24,,<0.005 µM
C=CCN(C(=O)NCc1ccc([N+](=O)[O-])cc1)C1CCN(CC[C@H](CN(C)S(=O)(=O)c2ccccc2)c2ccccc2)CC1,YU2,,p24,,<0.25 µM
COc1ccc(Sc2nc(N)nc3c2ncn3C[C@@H](CF)OP(=O)(O)O)cc1,BaL,,luciferase,,>100 µM
CC(C)(C)NC(=O)[C@@H]1C[C@@H]2CCCC[C@@H]2CN1C[C@@H](O)[C@H](Cc1ccccc1)NC(=O)[C@H](CC(N)=O)NC(=O)c1ccc2ccccc2n1,BR97 (PR L10I K20R M36I/V P63L/S L90M),PR-L10I K20R M36I/V P63L/S L90M,p24,,0.013 µM
CCO/N=C(\c1ccc(Br)cc1)C1CCN(C2(C)CCN(C(=O)c3c(C)cc[n+]([O-])c3C)CC2)CC1,JRCSF R5 CLADE B,,p24,,0.0005 µM
O=C1N(Cc2ccc(CO)cc2)[C@H](Cc2ccccc2)[C@H](O)[C@@H](O)[C@@H](Cc2ccccc2)N1Cc1ccc(CO)cc1,HXB2,,p24,,<0.018 µM
CCC(=O)c1ccc(F)c([C@@H]2C[C@@H]2NC(=O)Nc2ccc(C#N)cn2)c1O,97ZA009,,absorbance,,0.0009 µM
Nc1nc2c(ccn2C[C@@H](CF)OCP(=O)(O)O)c(=O)[nH]1,BaL,,luciferase,,>100 µM
CCCc1cc(=O)oc2c3c(c4c(c12)OC(C)(C)C=C4)O[C@H](C)[C@@H](C)[C@@H]3O,ROJO(SI),,RT activity,,0.07 µM
Cc1cc(C)c(Nc2ccnc(Nc3ccc(C#N)cc3)n2)c(C)c1,7324-1,,absorbance,,0.0017 µM
S=C(NCCc1cccs1)Nc1ccc(Br)cn1,IIIB,,p24,,0.03 µM
Cc1cn([C@H]2C[C@H](N=[N+]=[N-])[C@@H](CO)O2)c(=O)[nH]c1=O,Clinical isolate,KM018,ELISA,,0.141 µM
Cc1ccnc2c1NC(=O)c1cccnc1N2C1CC1,BCF08,RT-A98G Y181C,,,10 µM
CC(C)CN(C[C@@H](O)[C@H](Cc1ccccc1)NC(=O)O[C@H]1CCOC1)S(=O)(=O)c1ccc(N)cc1,Clinical isolate,L10I I15V K20R L24I M36I M46L I54V I62V L63P K70Q V82A L89M,p24 / luminescence,"clinical isolate, multidrug-resistant",0.41 µM
Nc1ccn([C@@H]2CC[C@H](CO)O2)c(=O)n1,LAV,,RT activity,,0.26 µM
O=c1[nH]cnc2c1ncn2[C@H]1CC[C@@H](CO)O1,4737,,ELISA,,0.5 µM
CN[C@@H]1[C@H](O[C@@H]2OC[C@@H](O)[C@H](O)[C@H]2O)[C@@H](O)[C@H](O[C@H]2c3cc(C)c(C(=O)N[C@H](C)C(=O)O)c(O)c3-c3c(cc4c(c3O)C(=O)c3cc(OC)cc(O)c3C4=O)[C@@H]2O)O[C@@H]1C,BCF-DIOUM R5 CLADE G,,p24,,2.2 µg/mL
CCCN(C(=O)OCc1cccc(C(N)=O)c1)C1CCN(CC[C@H](CN(C)S(=O)(=O)c2ccccc2)c2cccc(Cl)c2)CC1,YU2,,p24,,<3 µM
COc1ccc(S(=O)(=O)N(CC(C)C)C[C@@H](O)[C@H](Cc2ccccc2)NC(=O)O[C@H]2CCC[C@H]3O[C@@H]4OCC[C@@H]4[C@@H]23)cc1,ERS104pre,,,multidrug-resistant,0.0008 µM
CCc1cc(NCc2nc3c(Cl)ccc(Cl)c3o2)c(=O)[nH]c1C,Clinical isolate (RT K70R),RT-K70R,p24,,<0.4 µM
Cc1cn([C@H]2C[C@H](N=[N+]=[N-])[C@@H](CO)O2)c(=O)[nH]c1=O,IIIB,,p24,,0.003 µM
Nc1nc(Cl)nc2c1ncn2[C@@H]1C[C@@H](O)[C@H](CO)O1,LAV,,RT activity,,>10 µM
CC(C)(C)OC(=O)N[C@@H](Cc1ccccc1)[C@H](O)CNC[C@@H](O)[C@H](Cc1ccccc1)NC(=O)C(C)(O)C(C)(C)C,A018A,,p24,,0.21 µM
Cc1cn([C@H]2C[C@H](N=[N+]=[N-])[C@@H](CO)O2)c(=O)[nH]c1=O,TEKI (non-syncytium-inducing),,cytopathic effect / XTT,,0.03 µM
CC(C)=CCN1Cc2cc(Cl)cc3[nH]c(=S)n(c23)C[C@@H]1C,VAU (RT-A98G),RT-A98G,,,0.08 µM
Cc1cn([C@H]2C[C@H](N=[N+]=[N-])[C@@H](CO)O2)c(=O)[nH]c1=O,56252-1 NRTI resistant recombinant,RT-T69K K70G V75I F77L F116Y Q151M M184V,RT activity,,0.187 µM
S=C(NCCc1cccs1)Nc1ccc(Br)cn1,X267-5 Clinical isolate NRTI-resistant,RT-M41L F116S T215Y,p24,,0.045 µM
Cc1ccnc2c1NC(=O)c1cccnc1N2C1CC1,CLADE A,,RT activity,,0.06 µM
S=C(NCc1ccco1)Nc1nccs1,IIIB,,p24,,<0.001 µM
Cc1cn([C@H]2C[C@H](N=[N+]=[N-])[C@@H](CO)O2)c(=O)[nH]c1=O,CLADE B,,RT activity,,0.1 µM
CCCN(C(=O)NCc1ccccc1)C1CCN(CCC(CN(C)S(=O)(=O)c2ccccc2)c2ccccc2)CC1,YU2,,p24,,<3 µM
N#Cc1cn(C[C@H](CF)OCP(=O)(O)O)c2nc(N)[nH]c(=O)c12,BaL,,luciferase,,>100 µM
C[C@@H]1O[C@H]2OCCC[C@H]2[C@H]1OC(=O)N[C@@H](Cc1ccccc1)[C@H](O)CN1C[C@H]2CCCC[C@H]2C[C@H]1C(=O)NC(C)(C)C,PR-L63P ERS104pre,,p24,,0.23 µM
c1cc(CN2CCCNCCNCCCNCC2)ccc1CN1CCCNCCNCCCNCC1,CM235 CLADE E R5,,p24,,>0.5 µM
CCCN(C(=O)Nc1ccccc1)C1CCN(CCC(CN(C)S(=O)(=O)c2ccccc2)c2ccccc2)CC1,YU2,,p24,,<6 µM
O=c1[nH]cnc2c1ncn2[C@H]1CC[C@@H](CO)O1,Isolate 8093,,p24,,0.62 µM
CC[C@H](C)[C@H](NC(=O)c1ccccc1SSc1ccccc1C(=O)N[C@H](C(=O)O)[C@@H](C)CC)C(=O)O,LAV-Bru,,p24 / RT activity,,7 µM
COC(=O)N(CC1CCCCC1)C1CCN(CCC(CN(C)S(=O)(=O)c2ccccc2)c2ccccc2)CC1,YU2,,p24,,<25 µM
Nc1nc2c(c(F)cn2C[C@@H](CF)OCP(=O)(O)O)c(=O)[nH]1,BaL,,luciferase,,>100 µM
Cc1ccc(-c2ccc3c(c2)C=C(C(=O)Nc2ccc(C[N+](C)(C)C4CCOCC4)cc2)CCC3)cc1,SW,,p24,,>20 µM
C=CCN(C(=O)OCc1ccccc1)C1CCN(CCC(CN(C)S(=O)(=O)c2ccccc2)c2ccccc2)CC1,YU2,,p24,,<0.8 µM
Cc1cn([C@H]2C[C@H](N=[N+]=[N-])[C@@H](CO)O2)c(=O)[nH]c1=O,M032690,,p24,,0.11 µM
S=C(NCCc1ccccn1)Nc1ccc(Br)cn1,NRTI resistant (RT L74V M41L V106A T215Y) MDR,RT-L74V M41L V106A T215Y,p24,,0.02 µM
COC(=O)N[C@H](C(=O)N[C@@H](Cc1ccccc1)[C@@H](O)CN(Cc1ccc(-c2ccccn2)cc1)NC(=O)[C@@H](NC(=O)OC)C(C)(C)C)C(C)(C)C,97ZA003,,p24 / luminescence,,0.003 µM

9 of the rows above, restated:

SMILES,strain or isolate,mutations,method,conditions,value
CCCN(C(=O)OCc1cccc(C(N)=O)c1)C1CCN(CC[C@H](CN(C)S(=O)(=O)c2ccccc2)c2cccc(Cl)c2)CC1,YU2,,p24,,<3 µM
Cc1cc(C)c(Nc2ccnc(Nc3ccc(C#N)cc3)n2)c(C)c1,7324-1,,absorbance,,0.0017 µM
COC(=O)N[C@H](C(=O)N[C@@H](Cc1ccccc1)[C@@H](O)CN(Cc1ccc(-c2ccccn2)cc1)NC(=O)[C@@H](NC(=O)OC)C(C)(C)C)C(C)(C)C,97ZA003,,p24 / luminescence,,0.003 µM
Nc1ncnc2c1ncn2[C@@H]1C=C[C@H](CO)O1,LAV,,RT activity,,0.38 µM
Nc1nc(Cl)nc2c1ncn2[C@@H]1C[C@@H](O)[C@H](CO)O1,LAV,,RT activity,,>10 µM
N#Cc1cn(C[C@H](CF)OCP(=O)(O)O)c2nc(N)[nH]c(=O)c12,BaL,,luciferase,,>100 µM
Cc1cn([C@H]2C[C@H](N=[N+]=[N-])[C@@H](CO)O2)c(=O)[nH]c1=O,TEKI (non-syncytium-inducing),,cytopathic effect / XTT,,0.03 µM
S=C(NCCc1cccs1)Nc1ccc(Br)cn1,X267-5 Clinical isolate NRTI-resistant,RT-M41L F116S T215Y,p24,,0.045 µM
CCCc1cc(=O)oc2c3c(c4c(c12)OC(C)(C)C=C4)O[C@@H](C)[C@H](C)[C@@H]3O,CLADE F,,RT activity,,0.1 µM